In the series the test system is HCV replicon RNA in Huh7 cells. Description: Reversal studies with natural nucleosides: HCV RNA. The conditions noted are these: natural nucleoside at 50 μM; test compound at the concentration given in Table 2. It counts as cell-based, hepatitis C virus (HCV). The method, then: Incubation times differed according to the type of experiment.
Cells were incubated with the test compound and, simultaneously, the natural ribo- or 2′-deoxy nucleosides (adenosine, guanosine (G), cytidine (C), uridine (U), 2′-deoxycytidine (dC), 2′-deoxyuridine, thymidine, 2′-deoxyguanosine (dG), and 2′-deoxyadenosine) (Table 2).

As for `C[C@@]1(O)[C@H](O)[C@@H](CO)O[C@H]1n1cnc2c(N)ncnc21` [2′C—CH3-A, 2′-C-methyl-adenosine], the “antiviral and toxic effect prevented by (natural nucleoside)” value is “could not be prevented by any of the natural nucleosides”.

(Values after patent publication US20050049204A1, “Compounds for the treatment of flaviviridae infections” (priority 2003, published 2005).)
